Here are results for six compounds from PubChem BioAssay AID2221 (Broad Institute, 2009).

Amino acid sequences for entries named in this document (tags omitted). A change or cut given only in a name is not applied to a line headed by its entry.
UniProt P9WHJ3: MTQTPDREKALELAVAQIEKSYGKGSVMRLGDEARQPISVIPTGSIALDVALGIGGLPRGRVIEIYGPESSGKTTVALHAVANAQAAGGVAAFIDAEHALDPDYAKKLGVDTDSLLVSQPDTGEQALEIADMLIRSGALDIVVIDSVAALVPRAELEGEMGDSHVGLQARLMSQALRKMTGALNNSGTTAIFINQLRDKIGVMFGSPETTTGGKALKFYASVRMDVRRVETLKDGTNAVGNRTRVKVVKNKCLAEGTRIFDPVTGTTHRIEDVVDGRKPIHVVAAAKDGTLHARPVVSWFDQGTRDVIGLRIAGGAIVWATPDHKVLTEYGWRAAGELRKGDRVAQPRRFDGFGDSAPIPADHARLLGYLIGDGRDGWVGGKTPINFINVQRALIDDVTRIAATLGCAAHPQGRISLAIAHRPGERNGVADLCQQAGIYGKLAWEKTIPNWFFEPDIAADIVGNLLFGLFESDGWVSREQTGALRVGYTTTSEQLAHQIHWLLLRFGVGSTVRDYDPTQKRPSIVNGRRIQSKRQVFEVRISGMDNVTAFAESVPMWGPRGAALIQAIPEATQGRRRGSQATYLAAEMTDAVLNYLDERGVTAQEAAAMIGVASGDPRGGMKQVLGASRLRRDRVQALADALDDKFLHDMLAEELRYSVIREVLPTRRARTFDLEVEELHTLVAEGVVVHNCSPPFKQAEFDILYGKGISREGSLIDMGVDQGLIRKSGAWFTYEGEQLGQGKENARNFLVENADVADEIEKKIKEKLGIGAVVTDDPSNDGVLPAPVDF

The list shows a part of the results, in another mix than the full data. Active and inactive are the calls of the source. Rule as the data show it: active = inhibition above about 30%; inconclusive = no clear call, values can overlap the other calls; inactive = below that.

The target of this test is Protein RecA (Mycobacterium tuberculosis (strain ATCC 25618 / H37Rv)) (UniProt P9WHJ3). The test can be described thus: Mtb RecA intein splicing inhibitors, primary screen, biochemical, fluorescence, HTS (AID 2221).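 Also: 0% = vehicle wells and 100% = reference inhibitor control wells.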 To be noted: cell-free RecA intein splicing, stronger effect = higher value, concentration not given here.
The inhibition is how much of the control response was suppressed. With `O=C(O)c1ccccc1[As](=O)(O)O`, the inhibition is active: 96.9%.

As to `O=[N+]([O-])c1cc([N+](=O)[O-])c(CCN2CCOCC2)c([N+](=O)[O-])c1`, the inhibition was active: 77.9%.

Consider `Nc1cc(N)c2nonc2c1[N+](=O)[O-]`, for which the inhibition is active: 34.2%.

For the compound `CCc1nc2c(n1)c1c(non1O)c1c2no[n+]1[O-]`, the inhibition is active: 90.2%. With `O=[N+]([O-])c1cccc2n[nH]nc12`, the inhibition is active: 48.7%. `C[N+]1=C2C=CC=CC=C2SC12C([N+](=O)[O-])=CC([N+](=O)[O-])=C[C-]2[N+](=O)[O-]` (stereo unspecified): the inhibition was active: 57.2%.
